From US11414454B2, “Compositions, methods, and systems for affinity-based protein identification and purification” (Auctus Biologies, Inc., priority 2017, dated 2022)

Tested on: RPtag (large)
Assay: Association/dissociation kinetics of RPtag (small) peptides with RPtag (large) by fluorescence anisotropy
Set-up: species or system Thermoanaerobacter tengcongensis
Conditions: equilibrium non-binding S / binding S* state
Experimental: Panel a depicts representative association rate kinetics traces varying native RPtag small. Rhodamine labeled RPtag small at the indicated concentration was incubated with unlabeled RPtag large and the association measured by fluorescence anisotropy. L-S complex concentration was calculated by the equation (r−rmin)/(rmax−rmin)*[S] where r is the measured anisotropy, rmin is the anisotropy in the absence of any RPtag large, rmax is the anisotropy measured in the presence of at saturating RPtag large, and [S] is the total concentration of RPtag small used in the experiment. […] Dashed cyan lines are simulations of the mechanism shown in f using the rate constants detailed herein. […]
LS complex was performed by incubating 1000 nM RPtag large with the indicated concentrations of rhodamine labeled RPtag small. At the start of the experiment, 0.1 mM unlabeled native RPtag small was added and fluorescence anisotropy monitored. […]
The library of mutant RPtag(small) peptides, described above, was next analyzed to measure off rates (koff). The on rate was also calculated from measured koff and Kd (S*-LS transition), except instead of using unlabeled native peptide as the competitor, we used unlabeled Nd2,P5A,E18A (the tightest binding RPtag(small) peptide identified). […]

Sequence: GEKIPNFIPAELKLITKENVQ [q21a, RPtag(small) with Q21 changed to alanine]
- Keq (S-S*): 0.8 ± 0.1
